{"source": "paper PMC12121777", "about": "(PLOS One, 2025)", "tested_on": "HepG2 cells", "test": "Cytotoxicity on HepG2 cell line (CellTiter 96)", "format": "cell-based, human", "note": "Like-named read-outs stand apart in the source and are kept apart here."}
{"compound": "CCCCNC(=O)NNC(=O)c1cc([N+](=O)[O-])cc([N+](=O)[O-])c1", "note": "[Compound 4d, N-Butyl-2-(3,5-dinitrobenzoyl)hydrazine-1-carboxamide]", "values": [{"measurement": "SI for M. kansasii 6509/96", "result": 49.5}, {"measurement": "SI for Mtb 331/88", "setting": "ratio of IC50 (HepG2) to MIC", "result": 98.9}]}
{"compound": "CCCCCNC(=O)NNC(=O)c1cc([N+](=O)[O-])cc([N+](=O)[O-])c1", "note": "[Compound 4e, 2-(3,5-Dinitrobenzoyl)-N-pentylhydrazine-1-carboxamide]", "values": [{"measurement": "SI for M. kansasii 6509/96", "result": 66.8}, {"measurement": "SI for Mtb 331/88", "setting": "ratio of IC50 (HepG2) to MIC", "result": 133.6}]}
{"compound": "CCCCCCNC(=O)NNC(=O)c1cc([N+](=O)[O-])cc([N+](=O)[O-])c1", "note": "[Compound 4f, 2-(3,5-Dinitrobenzoyl)-N-hexylhydrazine-1-carboxamide]", "values": [{"measurement": "SI for M. kansasii 6509/96", "result": 119.0}, {"measurement": "SI for Mtb 331/88", "setting": "ratio of IC50 (HepG2) to MIC", "result": 119.0}]}
{"compound": "CCCCCCCCNC(=O)NNC(=O)c1cc([N+](=O)[O-])cc([N+](=O)[O-])c1", "note": "[Compound 4h, 2-(3,5-Dinitrobenzoyl)-N-octylhydrazine-1-carboxamide]", "values": [{"measurement": "SI for M. kansasii 6509/96", "result": 136.4}, {"measurement": "SI for Mtb 331/88", "result": 272.8}]}
{"compound": "CCCCCCCCCCNC(=O)NNC(=O)c1cc([N+](=O)[O-])cc([N+](=O)[O-])c1", "note": "[Compound 4j, N-Decyl-2-(3,5-dinitrobenzoyl)hydrazine-1-carboxamide]", "values": [{"measurement": "SI for M. kansasii 6509/96", "result": 35.3}, {"measurement": "SI for Mtb 331/88", "setting": "ratio of IC50 (HepG2) to MIC", "result": 141.0}]}
{"compound": "CCCCCCCCCCCNC(=O)NNC(=O)c1cc([N+](=O)[O-])cc([N+](=O)[O-])c1", "note": "[Compound 4k, 2-(3,5-Dinitrobenzoyl)-N-undecylhydrazine-1-carboxamide]", "values": [{"measurement": "SI for M. kansasii 6509/96", "result": 25.0}, {"measurement": "SI for Mtb 331/88", "setting": "ratio of IC50 (HepG2) to MIC", "result": 99.9}]}
{"compound": "CCCCCCCCCCCCNC(=O)NNC(=O)c1cc([N+](=O)[O-])cc([N+](=O)[O-])c1", "note": "[Compound 4l, 2-(3,5-Dinitrobenzoyl)-N-dodecylhydrazine-1-carboxamide]", "values": [{"measurement": "SI for M. kansasii 6509/96", "result": 41.5}, {"measurement": "SI for Mtb 331/88", "setting": "ratio of IC50 (HepG2) to MIC", "result": 82.9}]}
{"compound": "CCCCCCCCCCCCCNC(=O)NNC(=O)c1cc([N+](=O)[O-])cc([N+](=O)[O-])c1", "note": "[Compound 4m, 2-(3,5-Dinitrobenzoyl)-N-tridecylhydrazine-1-carboxamide]", "values": [{"measurement": "SI for M. kansasii 6509/96", "result": 40.7}, {"measurement": "SI for Mtb 331/88", "setting": "ratio of IC50 (HepG2) to MIC", "result": 40.7}]}
{"compound": "CCCCCCCCCCCCCCNC(=O)NNC(=O)c1cc([N+](=O)[O-])cc([N+](=O)[O-])c1", "note": "[Compound 4n, 2-(3,5-Dinitrobenzoyl)-N-tetradecylhydrazine-1-carboxamide]", "values": [{"measurement": "SI for M. kansasii 6509/96", "result": 25.9}, {"measurement": "SI for Mtb 331/88", "setting": "ratio of IC50 (HepG2) to MIC", "result": 25.9}]}
{"compound": "CCCCCCCCCCCCCCCNC(=O)NNC(=O)c1cc([N+](=O)[O-])cc([N+](=O)[O-])c1", "note": "[Compound 4o, 2-(3,5-Dinitrobenzoyl)-N-pentadecylhydrazine-1-carboxamide]", "values": [{"measurement": "SI for M. kansasii 6509/96", "result": 5.2}, {"measurement": "SI for Mtb 331/88", "setting": "ratio of IC50 (HepG2) to MIC", "result": 5.2}]}
{"compound": "CCCCCCCNc1nnc(-c2cc([N+](=O)[O-])cc([N+](=O)[O-])c2)o1", "note": "[Compound 5g, 5-(3,5-Dinitrophenyl)-N-heptyl-1,3,4-oxadiazol-2-amine]", "values": [{"measurement": "SI for M. kansasii 6509/96", "result": "> 800"}, {"measurement": "SI for Mtb 331/88", "result": "> 3,333"}]}
{"compound": "CCCCCCCCCCCCCCNc1nnc(-c2cc([N+](=O)[O-])cc([N+](=O)[O-])c2)o1", "note": "[Compound 5n, 5-(3,5-Dinitrophenyl)-N-tetradecyl-1,3,4-oxadiazol-2-amine]", "values": [{"measurement": "SI for M. kansasii 6509/96", "result": "> 50"}, {"measurement": "SI for Mtb 331/88", "setting": "ratio of IC50 (HepG2) to MIC", "result": "> 50"}]}
{"compound": "CCCCCCCCCCCCCCCNc1nnc(-c2cc([N+](=O)[O-])cc([N+](=O)[O-])c2)o1", "note": "[Compound 5o, 5-(3,5-Dinitrophenyl)-N-pentadecyl-1,3,4-oxadiazol-2-amine]", "values": [{"measurement": "SI for M. kansasii 6509/96", "result": "> 25"}, {"measurement": "SI for Mtb 331/88", "setting": "ratio of IC50 (HepG2) to MIC", "result": "> 25"}]}
{"compound": "NNC(=O)c1ccncc1", "note": "[INH, isoniazid, reference compound]", "values": [{"measurement": "SI for Mtb 331/88", "setting": "ratio of IC50 (HepG2) to MIC", "result": "> 1000"}]}
